# Measured data: PubChem BioAssay AID624099 (ICCB-Longwood, 2012)
# Purpose: 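Knock-downs relieving repression by E2 of an HPV18 LCR luciferase reporter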 (primary screen)
# System: human C33A cervical carcinoma cells (HPV-negative) stably expressing BPV1 E2 and an HPV18 LCR luciferase reporter
# Reagent: siRNA pool against human genes, 40 nM
# Duration: 72 h
# Detection: 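Per-well luciferase luminescence, z-scored on each plate against the plate mean and SD with control wells left out, then averaged across three replicate plates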
# Reading the numbers: mean z-score and z-score: higher = stronger reporter signal, weaker E2 silencing
# Rule for the call: 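Hit if mean z-score reaches 2 and two or more of three replicate z-scores also reach 2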
# In all, the deposit lists about 21,000 reagents; this is a random part of them. 497 of all reagents (2.4%) count as active. 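Higher z means weaker E2 silencing; only reporter increases were scored, and knock-downs that hurt cell survival may mask genuine repressor factors.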 Unmarked entries are inactive.
gene,mean z-score,"z-score, replicate A","z-score, replicate B","z-score, replicate C"
SPDEF,-0.26,0.06,-0.22,-0.62
PWWP2B,1.03,0.87,1.2,1.03
CD47,0.91,1.42,0.63,0.69
PAPOLB,0.57,0.62,0.69,0.4
TYW2,-0.22,-0.74,0,0.08
CMTR2,-0.9,-0.99,-1.01,-0.7
VSNL1,1.26,1.16,1.17,1.44
CACNA1E,-0.73,-0.92,-0.45,-0.81
MRPS18B,-0.16,-0.06,0,-0.42
CEACAM1,-1.09,-0.91,-1.59,-0.76
HSFX1,-0.24,0.12,-0.37,-0.48
SMIM9,0.72,1.01,0.44,0.71
EI24,0.11,0.51,-0.13,-0.04
LOC401384 (retired record),0.88,0.65,1.45,0.53
STXBP6,0.89,0.75,0.68,1.25
TRABD2A,0.1,-0.03,-0.13,0.47
LOC400714 (retired record),-0.44,-0.56,-0.42,-0.34
CADM4,-1.73,-1.39,-2.26,-1.55
SLC5A2,1,0.91,1.15,0.95
MRPS25,0.58,0.34,0.8,0.61
IDI2-AS1,2.24 (active),2.72,1.86,2.13
SEMA3D,2.12 (active),2.17,2.31,1.86
TICRR,0.34,0.21,0.43,0.37
GPALPP1,-0.64,-0.44,-0.71,-0.78
CBLL1,-0.89,-0.48,-0.62,-1.56
H2AC7,-0.21,-0.17,-0.17,-0.3
DNAJC22,-0.68,-0.57,-0.69,-0.78
RBM7,1.12,0.84,1.24,1.29
NDN,-0.09,0.03,0.14,-0.45
RBL1,-0.94,-1.01,-0.9,-0.92
ATP6V0A4,0.11,0.26,0.15,-0.09
LOC388641 (retired record),-0.01,0.57,0.02,-0.61
SLC38A9,-0.64,-0.61,-0.67,-0.64
ABCA2,-1.32,-1.34,-1.59,-1.01
CFAP61,0.11,-0.07,0.13,0.26
BPIFB9P,-0.6,-0.89,-0.45,-0.45
TRPC6,-0.85,-0.94,-0.7,-0.9
IFT70A,0.69,0.37,0.94,0.76
SRPK2,0.12,0.53,-0.13,-0.06
MFF,-0.14,1.08,-0.73,-0.76
SLC9A1,-0.35,-0.29,-0.35,-0.42
TRAF3IP2,0.27,0.47,0.14,0.19
BICDL2,0.11,0.2,-0.17,0.31
COMTD1,0.74,0.96,0.67,0.58
RBMY1A1,0.69,0.57,0.58,0.93
AFAP1,-0.52,-0.29,-0.57,-0.71
GET3,-1.73,-1.85,-1.53,-1.8
PABPC5,-0.73,-0.87,-1.28,-0.05
MTPN,-1.94,-1.92,-1.85,-2.05
RAMP2,-0.35,-0.25,-0.48,-0.31
GLE1,1.34,1.16,1.21,1.66
LMNB2,-0.67,-1.03,-0.73,-0.26
UGT2B11,2.31 (active),2.36,2.34,2.23
STK17A,-0.29,-0.45,-0.16,-0.27
LOC388337 (retired record),0.09,0.48,-0.12,-0.1
KLHL41,0.37,0.34,0.53,0.25
PPP1R3E,-0.14,0.08,-0.21,-0.3
LOC388568 (retired record),-1.19,-1.42,-0.98,-1.16
KIF12,-0.12,-0.16,0.01,-0.22
SSU72,0.14,-0.05,0.39,0.08
TUBB8,0.54,0.71,0.56,0.36
NAA35,0.37,0.34,0.21,0.55
PYCR2,3.08 (active),3.42,2.39,3.42
LOC400937 (retired record),0.93,0.83,1.34,0.62
NSUN5P2,-1.63,-1.65,-1.66,-1.57
PABPN1L,-0.23,-0.36,-0.28,-0.06
SOX15,1.39,1.47,1.28,1.42
RPS27AP17,-0.25,0.04,-0.12,-0.66
P2RY4,0.04,0.12,-0.11,0.11
ADAM10,1.53,1.57,1.31,1.72
ZFP90,-1.37,-1.64,-1.7,-0.76
RSL24D1P11,-0.33,-0.23,-0.48,-0.29
ECM1,2.05,2.58,1.65,1.93
